## Potato spindle tuber viroid, loop 15: variant abundance in plants

The measurements come from Wu et al. 2024 (doi:10.1371/journal.ppat.1012142).

PSTVd intermediate strain, loop 15: wild type GGAAACCGCUACUAC, pool pattern GGAAACCGNNNNNNC; upper and lower strand joined, each 5' to 3', the first 7 letters being the upper strand, closing pairs included.

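Three N. benthamiana plants were inoculated with the whole mutant pool. Progeny were sequenced from the inoculated region (day 5), the margin of the inoculated leaf (day 10) and systemic leaves (day 12).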

Numbers give reads per thousand; 0 = not seen among the reads, higher = more abundant. Each value is the mean of three plants. "Pool" is the share in the plasmid pool used as inoculum, on the same scale. The inoculated region was read from the minus strand, the other sites from the plus strand. For reference, wild type rose from 33.9 per thousand in the pool to 202, 200, 159 (inoculated region), 724, 746, 710 (leaf margin) and 856, 883, 880 (systemic leaves). The authors trace changes outside the varied positions to PCR and sequencing errors or to mutation in the plant; presence does not show that a variant is infectious alone. Samples held 43,870 to 66,106 reads, so the smallest values rest on one or two reads.

| sequence | pool | inoculated region | leaf margin | systemic leaves |
|---|---|---|---|---|
| GGAAACCGAGGCCCC | 0.256 | 0.172 | 0.0134 | 0 |
| GGAAACCGACGAACC | 0.288 | 0.0733 | 0.0121 | 0 |
| GGAAACCGUUUGAUC | 0.192 | 0.0985 | 0.00742 | 0 |
| GGAAACCGAGACGAC | 0.272 | 0.0922 | 0.00539 | 0 |
| GGAAACCGGUUCGUC | 0.288 | 0.0847 | 0 | 0.00504 |
| GGAAACCGUUAGGUC | 0.176 | 0.311 | 0.180 | 0.0699 |
| GGAAACCGGCCACGC | 0.272 | 0.134 | 0.0267 | 0 |
| GGAAACCGGCGUUUC | 0.208 | 0.0741 | 0.00668 | 0 |
| GGAAACCGCUCCCAC | 0.256 | 0.0876 | 0.0128 | 0.00760 |
| GGAAACCGCCUUACC | 0.208 | 0.154 | 0.00539 | 0.00537 |
| GGAAACCGGCAGUAC | 0.208 | 0.296 | 0.110 | 0.0720 |
| GGAAACCGUGUGUGC | 0.144 | 0.334 | 0.135 | 0.0161 |
| GGAAACCGUGAGUUC | 0.304 | 0.360 | 0.135 | 0.00537 |
| GGAAACCGGGCCUUC | 0.240 | 0.0940 | 0.00668 | 0 |
| GGAAACCGAUAUAGC | 0.256 | 0.277 | 0.103 | 0.00537 |
| GGAAACCGGAGCGUC | 0.256 | 0.0846 | 0 | 0 |
| GGAAACCGAGCUGCC | 0.240 | 0.245 | 0.00742 | 0.00537 |
| GGAAACCGGCCCUUC | 0.240 | 0.0535 | 0.0269 | 0 |
| GGAAACCGUAAAGAC | 0.176 | 0.123 | 0.0134 | 0 |
| GGAAACCGUCGUGAC | 0.176 | 0.0922 | 0.0128 | 0.00760 |
| GGAAACCGAAUCCGC | 0.176 | 0.122 | 0.00668 | 0 |
| GGAAACCGAACCCAC | 0.288 | 0.136 | 0.00668 | 0 |
| GGAAACCGUAUAUUC | 0.224 | 0.304 | 0.107 | 0.0107 |
| GGAAACCGCCCAGAC | 0.272 | 0.0813 | 0.00668 | 0 |
| GGAAACCGGACCAGC | 0.432 | 0.112 | 0.0208 | 0 |
| GGAAACCGAAAUGAC | 0.192 | 0.0840 | 0.0121 | 0.00537 |
| GGAAACCGUUUGACC | 0.272 | 0.0786 | 0 | 0 |
| GGAAACCGCGCGUAC | 0.224 | 0.301 | 0.0941 | 0.0534 |
| GGAAACCGAUUCGGC | 0.176 | 0.0585 | 0.0141 | 0.00537 |
| GGAAACCGAUCUGUC | 0.192 | 0.129 | 0.0269 | 0 |
| GGAAACCGCGACCAC | 0.336 | 0.293 | 0.113 | 0.0666 |
| GGAAACCGUUCUGGC | 0.368 | 0.0946 | 0.00668 | 0 |
| GGAAACCGGCCCAUC | 0.240 | 0.126 | 0.00539 | 0 |
| GGAAACCGGGCCCCC | 0.128 | 0.0857 | 0 | 0 |
| GGAAACCGUUGGAAC | 0.192 | 0.251 | 0.171 | 0.116 |
| GGAAACCGCGUUGGC | 0.320 | 0.112 | 0.00668 | 0 |
| GGAAACCGAACGUGC | 0.240 | 0.416 | 0.109 | 0.00537 |
| GGAAACCGUUGAGAC | 0.192 | 0.0893 | 0.0182 | 0 |
| GGAAACCGCCCACGC | 0.192 | 0.0912 | 0.00668 | 0 |
| GGAAACCGAGCCUCC | 0.256 | 0.0642 | 0.0128 | 0 |
| GGAAACCGGGCGUAC | 0.176 | 0.328 | 0.136 | 0.0467 |
| GGAAACCGUAUACCC | 0.240 | 0.0957 | 0 | 0 |
| GGAAACCGUUCACCC | 0.160 | 0.0864 | 0.0175 | 0 |
| GGAAACCGCUCUGGC | 0.256 | 0.0713 | 0.0134 | 0 |
| GGAAACCGUCUUACC | 0.112 | 0.0832 | 0.00539 | 0 |
| GGAAACCGGGCCGCC | 0.224 | 0.104 | 0 | 0 |
| GGAAACCGGGAAUCC | 0.208 | 0.0950 | 0.0121 | 0 |
| GGAAACCGCCCUGAC | 0.272 | 0.179 | 0.0187 | 0.0104 |
| GGAAACCGGUAAUCC | 0.240 | 0.0552 | 0.00539 | 0.0130 |
| GGAAACCGCACCAUC | 0.400 | 0.115 | 0.0175 | 0.00537 |
| GGAAACCGUAUUACC | 0.304 | 0.106 | 0.0200 | 0 |
| GGAAACCGACGCGGC | 0.256 | 0.0480 | 0.00742 | 0 |
| GGAAACCGCAGUAGC | 0.224 | 0.0977 | 0.0141 | 0 |
| GGAAACCGAGUAUUC | 0.240 | 0.103 | 0.0236 | 0.00760 |
| GGAAACCGUCCGAGC | 0.272 | 0.125 | 0 | 0.0130 |
| GGAAACCGCAGCAAC | 0.192 | 0.0835 | 0.0208 | 0.00760 |
| GGAAACCGUCUCACC | 0.288 | 0.0820 | 0 | 0.00537 |
| GGAAACCGUGUCUGC | 0.304 | 0.0668 | 0.0175 | 0 |
| GGAAACCGUCCCGUC | 0.240 | 0.101 | 0.0121 | 0 |
| GGAAACCGAUGUGAC | 0.272 | 0.0872 | 0.0121 | 0 |
| GGAAACCGAGGGGGC | 0.192 | 0.0958 | 0.0187 | 0 |
| GGAAACCGCUAGCUC | 0.192 | 0.321 | 0.135 | 0.0268 |

Extract of 4 entries:

| sequence | pool | inoculated region | leaf margin | systemic leaves |
|---|---|---|---|---|
| GGAAACCGAAUCCGC | 0.176 | 0.122 | 0.00668 | 0 |
| GGAAACCGCGACCAC | 0.336 | 0.293 | 0.113 | 0.0666 |
| GGAAACCGCCCUGAC | 0.272 | 0.179 | 0.0187 | 0.0104 |
| GGAAACCGUAUUACC | 0.304 | 0.106 | 0.0200 | 0 |